# Experimental data published in patent US20230348573A1 (KEIO UNIVERSITY, published 2023).
# Experiments:
# Assay in all cases: ACE2 competition, spike on 293T cells, antibody 4 µg/mL
# [1] = target: T1, full-length spike protein of SARS-CoV-2 α strain (SARS-CoV-2 (α strain))
# T1 construct: whole, on cells; Expressed in 293T cells
# [2] = target: T2, full-length spike protein of SARS-CoV-2 β strain (SARS-CoV-2 (β strain))
# T2 construct: whole, on cells; Expressed in 293T cells
# [3] = target: T3, full-length spike protein of SARS-CoV-2 γ strain (SARS-CoV-2 (γ strain))
# T3 construct: whole, on cells; Expressed in 293T cells
binder,measurement,setting,value
"Ab315 (antibody, V domains shown) VH: EVQLLESGGGLIQPGGSLRLSCAASGLIVSSNYMSWVRQAPGKGLEWVSVIYSGGSTYYADSVKGRFISSRDNSKNTLYLQMNSLRAEDTAVYYCARGELDLPYGMDVWGQGTTVTVSS VL: QAVVTQPPSVSAAPGQKVTISCSGSSSNIGNNYVSWYQQLPGTAPKLLICDTNKRPSGIPDRFSGSKSGTSATLGITGLQTGDEADYYCGTWDRSLSAGVFGGGTKLTVL",binding amount (%) of ACE2 protein,[1],4.5%
same,binding amount (%) of ACE2 protein,[2],88.6%
same,binding amount (%) of ACE2 protein,[3],99.3%
